PMC10321483 (Chemical Science, 2023)
Certain results were filed several times, with different values. The other results are left out here. An entry can have further records. Values that stand side by side do not match, cause unknown; dose, time, organism, isomer or construct need not be as stated for each record.

Chains of the proteins cited; added tags and fusions are not shown. Residues count along the entry.
UniProt I6Y9J2, 56-408 limits assumed: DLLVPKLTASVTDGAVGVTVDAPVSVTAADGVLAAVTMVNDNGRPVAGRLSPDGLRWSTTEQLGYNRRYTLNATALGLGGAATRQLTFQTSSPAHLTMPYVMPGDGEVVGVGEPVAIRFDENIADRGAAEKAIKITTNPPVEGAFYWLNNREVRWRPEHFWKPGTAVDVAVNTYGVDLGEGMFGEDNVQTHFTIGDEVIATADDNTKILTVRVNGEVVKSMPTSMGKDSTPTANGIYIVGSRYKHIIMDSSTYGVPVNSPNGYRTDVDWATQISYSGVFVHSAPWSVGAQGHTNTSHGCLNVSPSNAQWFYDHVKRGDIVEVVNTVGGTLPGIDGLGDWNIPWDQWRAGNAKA

Legend:
LdtMt2 = LdtMt2 (Mycobacterium tuberculosis, UniProt I6Y9J2); details: tested form: triflate
[1] = test system: M. tuberculosis (strain H37Rv) growth in THP1 cells; assay: Intracellular assay: Mtb H37Rv-Luc in THP-1 macrophages; details: 5 days, extrapolated from dose-response curve

| Structure (SMILES) | pIC50 LdtMt2 (LdtMt2) | MIC50 intracellular [1] |
| --- | --- | --- |
| N#C[s+]1c2ccccc2c2ccccc21 | < 4.4 and inactive | – |
| COc1ccc(CN2C(=O)C(=O)c3cc(Br)cc(C)c32)cc1OC [Compound 17] | – | 15.1 ± 0.70 μM, < 50 μM, 15.1 μM |
| N#Cn1c(-c2cc(F)cc(C(F)(F)F)c2)nc2ccccc21 [Compound 23] | – | 12.0 ± 1.5 μM, < 50 μM, 12.0 μM |
